From paper PMC3136475, “Dual Chaperone Role of the C-Terminal Propeptide in Folding and Oligomerization of the Pore-Forming Toxin Aerolysin” (PLoS Pathogens, 2011)

Target: the molecule itself
Assay: oligomerization followed by SDS-PAGE and Coomassie staining

B1: aerolysin (mature toxin obtained by trypsin cleavage of proaerolysin) (natural protein)
chain: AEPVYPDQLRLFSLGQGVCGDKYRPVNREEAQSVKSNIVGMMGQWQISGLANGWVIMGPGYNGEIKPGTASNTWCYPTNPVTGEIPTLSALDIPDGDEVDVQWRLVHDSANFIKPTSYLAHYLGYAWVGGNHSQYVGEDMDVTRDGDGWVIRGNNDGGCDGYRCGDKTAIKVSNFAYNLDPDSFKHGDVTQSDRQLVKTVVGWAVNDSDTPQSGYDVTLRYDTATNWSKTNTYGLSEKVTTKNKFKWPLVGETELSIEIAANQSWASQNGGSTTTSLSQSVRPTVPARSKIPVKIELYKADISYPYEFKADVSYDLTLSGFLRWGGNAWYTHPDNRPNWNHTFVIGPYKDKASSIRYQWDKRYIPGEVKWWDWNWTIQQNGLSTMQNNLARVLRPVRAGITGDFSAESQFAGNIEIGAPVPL
notes: also called trypsin-processed toxin; CTP-free aerolysin
binding result: binds
